The chains behind the UniProt entries cited, without tags or fusion partners. Where a name states a change or a piece, a line headed by the entry shows the natural chain unless it says otherwise.
UniProt Q9NUD5: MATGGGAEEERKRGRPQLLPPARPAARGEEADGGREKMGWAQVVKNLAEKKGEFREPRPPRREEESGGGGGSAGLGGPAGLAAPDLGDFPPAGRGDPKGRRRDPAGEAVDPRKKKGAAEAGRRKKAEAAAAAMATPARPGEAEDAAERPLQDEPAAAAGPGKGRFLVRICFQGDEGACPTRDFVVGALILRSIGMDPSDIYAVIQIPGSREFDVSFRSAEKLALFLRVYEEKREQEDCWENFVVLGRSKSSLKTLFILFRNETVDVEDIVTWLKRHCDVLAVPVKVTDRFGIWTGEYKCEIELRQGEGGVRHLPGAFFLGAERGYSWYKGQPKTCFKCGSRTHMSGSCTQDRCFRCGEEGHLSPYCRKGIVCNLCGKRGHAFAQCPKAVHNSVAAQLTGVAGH

In article doi:10.1101/2023.06.14.544911:

Target: T1, ZCCHC3 MF R168/247S R168S,R247S (human) (UniProt Q9NUD5)
T1 sequence (looked up): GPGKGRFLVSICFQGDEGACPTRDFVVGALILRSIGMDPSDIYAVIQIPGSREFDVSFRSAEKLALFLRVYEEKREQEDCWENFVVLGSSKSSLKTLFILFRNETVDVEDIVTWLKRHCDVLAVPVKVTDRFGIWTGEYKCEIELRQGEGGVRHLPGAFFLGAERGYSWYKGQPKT
Test: pull-down
Conditions: residues 159-334

## CUAGAGAUCCCUCAGACCCUUUUAGUCAGUGUGGAAAAUCUCUAG [SL3]
  binding result: binds more weakly

Construct, isoform or probe ends are uncertain for at least one entry. Weaker means in comparison with the reference protein, sequence or condition of that experiment. At least one verdict rests on a figure or table, not on a statement of the authors. Tags and fusion partners may be left off the protein sequences shown.
